Values from PubChem BioAssay AID1259414 (Drosophila RNAi Screening Center, 2018)
The screen tested about 24,000 reagents; below is a random part of those with a known target gene and a result. In the full data, about 1,210 (5%) got an active call. 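Inactive calls also include excluded dsRNAs with several or no targets, genes unexpressed in JW18, and well A1, regardless of score.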 A number with no mark means an inactive call. Reagents against one gene are numbered here. A plus sign joins genes that one reagent is predicted to hit.

Screen: 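Host factors increasing or decreasing Wolbachia levels in cultured fly cells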 (primary screen)
Cell system: Drosophila JW18 cells infected with Wolbachia
Knock-down reagent: long dsRNA against Drosophila genes, 0.25 µg dsRNA per well of a 384-well plate
Time to read-out: 5 days
Treatment: cells persistently infected with Wolbachia before knock-down; no added drug
Detection: 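Imaged fluorescence in situ signal for Wolbachia 23S rRNA per DAPI-counted host cell, given as a robust z-score within each plate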
Direction: Wolbachia per cell robust z: higher = more Wolbachia per host cell than the plate typical
Rule for the call: 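Active if absolute robust z reaches 1.5 in two or more of three replicates, leaving out multi- or no-target dsRNAs, genes unexpressed in JW18 and A1 wells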

Knock-down of CG1575 #1 came out at: Wolbachia per cell robust z, rep 1 = -0.717; Wolbachia per cell robust z, rep 2 = 0.0123; Wolbachia per cell robust z, rep 3 = 1.5. CG1575 #2 gave Wolbachia per cell robust z, rep 1 = -2.62 (active); Wolbachia per cell robust z, rep 2 = -2; Wolbachia per cell robust z, rep 3 = 0.246. Silencing of CG10286 came out at: Wolbachia per cell robust z, rep 1 = 0.855; Wolbachia per cell robust z, rep 2 = -0.596; Wolbachia per cell robust z, rep 3 = 0.393. Against Adgf-A2 the deposit lists Wolbachia per cell robust z, rep 1 = 0.508; Wolbachia per cell robust z, rep 2 = 0.0631; Wolbachia per cell robust z, rep 3 = -0.295. After knock-down of Gar1 #1 the results were Wolbachia per cell robust z, rep 1 = -4.77; Wolbachia per cell robust z, rep 2 = -0.28; Wolbachia per cell robust z, rep 3 = -0.165. After knock-down of Gar1 #2, the screen gave Wolbachia per cell robust z, rep 1 = 0.592; Wolbachia per cell robust z, rep 2 = 0.642; Wolbachia per cell robust z, rep 3 = 0.0224.

Silencing of CG1407 + CG12128 came out at: Wolbachia per cell robust z, rep 1 = 0.0663; Wolbachia per cell robust z, rep 2 = -0.354; Wolbachia per cell robust z, rep 3 = -0.293. CG13326 showed Wolbachia per cell robust z, rep 1 = 0.827; Wolbachia per cell robust z, rep 2 = 0.709; Wolbachia per cell robust z, rep 3 = -0.912.

Part of the list above, set out differently.
| gene | reagent no. | Wolbachia per cell robust z, rep 1 | Wolbachia per cell robust z, rep 2 | Wolbachia per cell robust z, rep 3 |
| --- | --- | --- | --- | --- |
| CG1575 | 1 | -0.717 | 0.0123 | 1.5 |
| CG1575 | 2 | -2.62 (active) | -2 | 0.246 |

Additional entries follow:
For Lcp3 #1, the values are Wolbachia per cell robust z, rep 1 = -0.58; Wolbachia per cell robust z, rep 2 = -1.19; Wolbachia per cell robust z, rep 3 = 0.614. Lcp3 #2 gave Wolbachia per cell robust z, rep 1 = 0.54; Wolbachia per cell robust z, rep 2 = 0.471; Wolbachia per cell robust z, rep 3 = 1.02. Silencing of CG5391 resulted in: Wolbachia per cell robust z, rep 1 = 0.59; Wolbachia per cell robust z, rep 2 = -1.56; Wolbachia per cell robust z, rep 3 = 1.3. With knock-down of dgt3, the record shows Wolbachia per cell robust z, rep 1 = 0.302; Wolbachia per cell robust z, rep 2 = 0.423; Wolbachia per cell robust z, rep 3 = 0.617.
